In paper PMC4727981 (Archives of biochemistry and biophysics, 2015):
pIC50, pKi: −log10 of the molar value.

Columns and labels:
human KIAA1363 [1] = molecular target: T1, human KIAA1363 (Homo sapiens, UniProt Q6PIU2); test: biochemical
T1 sequence (Q6PIU2 1-416 isoform Q6PIU2-2): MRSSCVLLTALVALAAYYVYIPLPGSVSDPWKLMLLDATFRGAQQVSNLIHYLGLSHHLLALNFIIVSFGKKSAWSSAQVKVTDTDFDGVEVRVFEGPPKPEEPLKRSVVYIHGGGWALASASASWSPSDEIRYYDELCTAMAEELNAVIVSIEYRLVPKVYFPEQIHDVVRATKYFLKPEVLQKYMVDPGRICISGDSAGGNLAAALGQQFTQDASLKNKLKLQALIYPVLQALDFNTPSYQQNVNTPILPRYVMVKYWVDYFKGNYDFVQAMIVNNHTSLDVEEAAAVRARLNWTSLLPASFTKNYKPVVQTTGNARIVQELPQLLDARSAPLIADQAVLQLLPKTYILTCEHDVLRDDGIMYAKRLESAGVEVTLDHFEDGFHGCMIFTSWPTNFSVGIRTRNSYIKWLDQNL

human KIAA1363 [2] = molecular target: T1, human KIAA1363; format: biochemical

**Q.** `COP(=O)(OC)Oc1ccc([N+](=O)[O-])cc1` [MPO, methyl paraoxon] was tested. Which pIC50 (human KIAA1363 [1]) did it give?
**A.** < 7.00

**Q.** How did the pKi (human KIAA1363 [2]) turn out when `CCOP(=O)(OCC)Oc1nc(Cl)c(Cl)cc1Cl` [CPO, O,O′-Diethyl 3,5,6-trichloro-2-pyridyl phosphate] was run?
**A.** 9.12
